Reference: patent publication US6150511 (Fox Chase Cancer Center)

How the values were obtained:
[1] = molecular target: T1, C-LIN (LexA DBD 1-87 fused to C-terminus of ASV IN) (Escherichia coli? / Avian sarcoma virus, UniProt P03354;P0A7C2 P03354:1281-1566,P0A7C2:1-87)
T1 chain 1: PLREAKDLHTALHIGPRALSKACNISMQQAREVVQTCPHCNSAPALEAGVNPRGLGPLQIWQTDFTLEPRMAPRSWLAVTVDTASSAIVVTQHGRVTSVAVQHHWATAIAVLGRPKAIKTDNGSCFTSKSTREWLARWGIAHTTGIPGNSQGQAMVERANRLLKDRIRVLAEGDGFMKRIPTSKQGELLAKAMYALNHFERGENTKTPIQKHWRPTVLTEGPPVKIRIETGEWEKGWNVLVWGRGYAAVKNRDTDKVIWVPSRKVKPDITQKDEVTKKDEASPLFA
T1 chain 2: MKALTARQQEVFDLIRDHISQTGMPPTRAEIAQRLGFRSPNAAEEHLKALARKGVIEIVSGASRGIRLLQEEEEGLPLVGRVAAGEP

[2] = molecular target: T2, N-LIN (LexA DBD 1-87 fused to N-terminus of ASV IN) (Escherichia coli? / Avian sarcoma virus, UniProt P0A7C2;P03354 P0A7C2:1-87,P03354:1281-1566)
T2 chain 1: T1 chain 2
T2 chain 2: T1 chain 1

LIN 18-286 = molecular target: T3, LIN 18-286 (Escherichia coli? / Avian sarcoma virus, UniProt P0A7C2;P03354 P0A7C2:1-87,P03354:1298-1566)
T3 chain 1: T1 chain 2
T3 chain 2: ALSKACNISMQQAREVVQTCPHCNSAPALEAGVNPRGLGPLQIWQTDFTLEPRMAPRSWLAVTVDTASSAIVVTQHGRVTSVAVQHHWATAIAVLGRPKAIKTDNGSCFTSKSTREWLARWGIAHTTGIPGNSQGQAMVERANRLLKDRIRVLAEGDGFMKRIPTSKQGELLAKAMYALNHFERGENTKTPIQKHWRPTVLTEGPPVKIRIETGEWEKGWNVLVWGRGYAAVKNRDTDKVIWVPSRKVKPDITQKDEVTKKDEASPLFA

Measured: binding result

B1: tandem lexA operator segment (in pBR711-2) (dsDNA)
chain 1: GGGGTCGACATTACTGTATATATATACAGCATAACTGTATATATATACAGTATAGGATCCGGG
chain 2: CCCGGATCCTATACTGTATATATATACAGTTATGCTGTATATATATACAGTAATGTCGACCCC
binds: all assays above
